Library screen at single concentrations

Measurements from “University of Dundee, Small-Polar-MMV Screening Library” (2021), ChEMBL document CHEMBL3988442.

Mtb glucose medium: 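Growth of Mycobacterium tuberculosis over 3 days (7H9 medium with glucose and tyloxapol); the read-out is not stated. Tested at 500 µM. The record gives no direction; compounds that gave an IC50 in retests scored well above the rest, so higher reads as more growth inhibition. Of about 18,000 compounds tested this way, about 1,400 (7.9%) reached 50% or more in at least one test.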
Mtb cholesterol medium: 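Whole-cell growth test on Mycobacterium tuberculosis, read after 4 days in a medium based on cholesterol and the lipid DPPC; the read-out is not stated. Tested at 500 µM. Direction is inferred from retests: higher values go with more growth inhibition. Of about 18,000 compounds tested this way, about 900 (5%) reached 50% or more in at least one test.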

Each number is a percent effect as filed. The controls that fix the scale are not given in the record; negative values are as filed. This is part of a subset picked to be rich in strong results. A dash means the value is not listed here; it may have been measured.

CCc1ccc(OCn2cc(N)cn2)cc1 read Mtb glucose medium: 73.03%; Mtb cholesterol medium: 77.29%.
CN(Cc1ccc2nonc2c1)C(=O)c1ccon1 read Mtb glucose medium: 13.68%.
CC1CCCN(C(=O)CN2CCC(O)CC2)C1 (stereo not drawn) read Mtb cholesterol medium: 0.3284%.
CCNC(=O)CCC(=O)N(C1CC1)C(C)c1ccco1 (stereo not drawn) read Mtb glucose medium: 15.51%.
NCC(N)c1ccc2c(c1)OCCO2 (stereo not drawn) read Mtb glucose medium: 35.58%; Mtb cholesterol medium: 21.91%.
CC(O)CN1CCN(C)CC1 (stereo not drawn) read Mtb glucose medium: 1.698%; Mtb cholesterol medium: -1.404%.
NCc1ccccc1-n1cccn1 read Mtb glucose medium: 64.85%.
OC1COC2(CCN(Cc3cc(F)cc(F)c3)CC2)C1 (stereo not drawn) read Mtb cholesterol medium: -0.2681%.
CC(=O)Nc1ccc(C(=O)N(C)c2ccccc2)s1 read Mtb glucose medium: 47.57%.
COc1cc(F)c(C(=O)N2CCC(OC)C2)c(F)c1 (stereo not drawn) read Mtb glucose medium: 19.11%; Mtb cholesterol medium: 2.235%.
NC(=O)C1CCN(CC(=O)Nc2cccc(F)c2)CC1 read Mtb glucose medium: 15.01%; Mtb cholesterol medium: 10.8%.
CC(=O)NCCNC(=O)c1oc(Br)cc1C read Mtb glucose medium: 14.57%.
Cc1ccnc(NCCOCCS(C)(=O)=O)c1 read Mtb glucose medium: -7.594%; Mtb cholesterol medium: -14.19%.
CCc1cccc2c1OCCC2N (stereo not drawn) read Mtb glucose medium: 59.64%.
CCc1cccc2c1N(C(=O)[C@@H](N)CC)CC2 read Mtb glucose medium: 61.27%.
O=C(NC1CC1)N1CCSCC1CCO (stereo not drawn) read Mtb glucose medium: -3.239%.
CS(=O)(=O)N1CCN(C(=O)Nc2cccnc2)CC1 read Mtb cholesterol medium: -24.01%.
CCCc1nnc(NCc2ccc(C)cn2)o1 read Mtb glucose medium: 66.55%.
Cc1nc(NC(=O)NCCC(C)O)sc1C (stereo not drawn) read Mtb glucose medium: 27.52%.
CCCN(Cc1cc(OC)ccn1)C1CCS(=O)(=O)C1 (stereo not drawn) read Mtb glucose medium: 3.254%.
CNCc1ncnn1C read Mtb glucose medium: -2.241%.
CCc1cc(C(=O)NCC(=O)N2CCCCC2)[nH]n1 read Mtb glucose medium: 21.12%.
C[C@@H](CO)NC(=O)c1ccccc1NCc1ccco1 read Mtb glucose medium: 16.47%.
CC(Cn1ccnc1)NC(=O)Nc1nccs1 (stereo not drawn) read Mtb cholesterol medium: -9.895%.
FC(F)Oc1ccc(NCCn2ccnc2)nc1 read Mtb glucose medium: 40.37%; Mtb cholesterol medium: 34.71%.
COc1cc(CCN)c(SC)cc1OC read Mtb glucose medium: 19.33%.

Some entries from above, unchanged:

| compound | Mtb glucose medium | Mtb cholesterol medium |
|---|---|---|
| `COc1cc(CCN)c(SC)cc1OC` | 19.33% | - |
| `CC(Cn1ccnc1)NC(=O)Nc1nccs1` (stereo not drawn) | - | -9.895% |